Test [1] concerns the target T1, HIV reverse transcriptase (Human immunodeficiency virus type 1 group M subtype B, UniProt P04585). Description: Steady-state kinetics of nucleotide incorporation in a DNA hybrid by HIV reverse transcriptase. On the procedure:
Determination of Km and Kcat values for the incorporation of dATP and PMDTApp in a DNA hybrid was carried out under steady-state conditions as described by Creighton et al. in Methods in Enzymology (1995) 262:232-256. For each determination eight different substrate concentrations in the range of 0.1 to 12.5 μM were used. Results given below are the average of three independent determinations. The reaction mixture contained 250 nM primer/template complex 0.025 U/μL HIV reverse transcriptase, and the triphosphate nucleotides to be incorporated (dATP and PMDTApp, respectively). The template sequence and the primer sequence used in this experiment are shown below. The reaction was quenched after 1, 2 and 3 minutes by adding a double volume of stop solution (90% formamide, 0.05% bromophenol blue, 0.05% xylene cyanol and 50 mM EDTA). Samples were analyzed by gel electrophoresis on a 16% polyacrylamide ureum gel in TBE buffer (89 mM Tris-borate, 2 mM EDTA buffer, pH 8.3) after heating the samples for 5 minutes at 70° C. Products were visualised by phosphorimaging. The amount of radioactivity in the bands corresponding to the products of the enzymatic reactions was determined using the Optiquant Image Analysis Software (Packard). Rate profiles were determined using GraphPad Prism® software.

Test [2] addresses T1, HIV reverse transcriptase. Description: Primer/extension assay with HIV reverse transcriptase (DNA template, DNA primer). The settings on record: compared with natural dATP. From the text:
The antiviral activity of the phosphonate nucleosides of the invention may be mostly explained by their intracellular metabolisation into their diphosphates (hereinafter referred as pp) followed by incorporation into the viral genome and chain termination. We used a primer/extension assay in order to compare the ability of the HIV reverse transcriptase and the human DNA polymerase-α to accept PMDTApp (see FIG. 15) as a substrate in comparison to deoxy-adenosine triphosphate (hereinafter referred as dATP). This will provide us with suitable information about the selectivity of the anti-HIV compound of the invention since the human DNA polymerase-α is mainly involved in replication of the nuclear genome while the HIV reverse transcriptase plays a key role in the replication of the viral genome.
The following incorporation study was effected with a DNA template and a DNA primer, as DNA polymerase-α and reverse transcriptase are both able to synthesize double stranded DNA (although reverse transcriptase is also able to synthesize a DNA strand using RNA as template). Both enzymes were able to extend a DNA primer with the phosphonate nucleotide, but the modified nucleotide was only a very poor substrate for the human DNA polymerase α.

The mark [3] stands for this setting: steady-state, 0.025 U/μL HIV reverse transcriptase, 250 nM primer/template, average of three determinations.

The term Km denotes the substrate concentration at which the rate is half of its maximum.

Structures are written as SMILES.

In the case of `Nc1ncnc2c1ncn2C1CC(OCP(=O)(O)OP(=O)(O)OP(=O)(O)O)CO1` (stereo not shown), in test [1] (HIV reverse transcriptase), the “Overall catalytic efficiency, factor of difference compared to dATP” value turned out to be 2.5. Further, in test [1] (setting [3]), the Kcat is reported as 0.79 min − 1 and the Km stood at 0.29 µM. In test [2], the “Acceptance as substrate by HIV reverse transcriptase” value is “as easily as the natural building block”.

(Values after patent publication US8076310B2, “Phosphonate nucleosides useful as active ingredients in pharmaceutical compositions for the treatment of viral infections, and intermediates for their production” (K.U.Leuven Research & Development, priority 2004, dated 2011).)
